PubChem BioAssay AID504761 | Drosophila RNAi Screening Center, 2011
Screen: 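Insect host genes that dengue virus relies on to spread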 (primary screen). Cells: D.Mel-2 cells from Drosophila. Reagent: long dsRNA against Drosophila genes. Conditions: infection with dengue virus type 2; dose and infection time not stated. Read-out: 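Cells stained for dengue envelope protein and imaged; percent of infected cells per well on duplicate plates, ranked by infection, with stained nuclei counted for cell number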. Scale: infection score: higher = more virus-infected cells. Active means: 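Low infection ranks in the two replicates (chance level up to 0.065) followed by a retest with a 1.5-fold or larger significant decrease, p below 0.05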. Calls: active = confirmed: knock-down lowers infection; inactive = not picked or not confirmed.
The deposit covers about 22,000 reagents; below is an unselected part of those with a known target gene and a result. Of all reagents, 116 (0.52%) got an active call. 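Calls depend on retest data that are not deposited; infection was ranked per plate without normalising between plates; the unit of the infection score is not given.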 The numbers tell different reagents against one gene apart. Further read-outs or replicates are left out here. Not given: the amount of reagent, the time to read-out.

gene	dsRNA no.	infection score, replicate 1	call
nht	1	1.6	inactive
Hecw	1	4.92	inactive
Hecw	2	20.2	inactive
Hecw	3	9.42	inactive
rpr	1	7.71	inactive
ND-75	1	12.4	inactive
CG30020	1	2.42	inactive
CG30020	2	2.74	inactive
Hmt4-20	1	16.1	inactive
Hmt4-20	2	1.13	inactive
Pdk	1	14	inactive
bt	1	1.77	inactive
bt	2	1.81	inactive
CG10336	1	14.1	inactive
CG4161	1	2.27	inactive
CG4161	2	9.53	inactive
CG14464	1	3.67	inactive
ara	1	2.94	inactive
ara	2	2.15	inactive
Rilpl	1	2.27	inactive
Ehbp1	1	4.67	inactive
Ehbp1	2	12.5	inactive
CG12171	1	5.43	inactive
CG12171	2	3.64	inactive

A run of entries taken from the entries so far, as a working copy:
gene	dsRNA no.	infection score, replicate 1	call
CG14464	1	3.67	inactive
ara	1	2.94	inactive
